How the values were obtained:
[1] = target: T1, SARS-CoV-2 RBD-hFc (receptor binding domain of the SARS-CoV-2 Spike protein, amino acids Arg319-Phe5 (SARS-CoV-2)); test: blocking ELISA, RBD-hFc to hACE2-His, run 3
[2] = target: T1, SARS-CoV-2 RBD-hFc (receptor binding …); test: blocking ELISA, RBD-hFc to hACE2-His, run 2

B1: mAb10998 (antibody, V domains shown)
VH: EVQLVESGGGLVHPGGSLRLSCAASGLTVSSNYMSWVRQAPGKGLEWVSVIYSGGSTYYADSVKGRFTISRHNSKNTLFLQMNSLRAEDTAVYYCARDRPITGTTLDVWGQGTTVTVSS
VL: DIQMTQSPSSLFASVGDRVTITCRASQSISSYLNWYQQKPGKAPKLLIYAASSLQSGVPSRFSGSGSGTDFTLTISSLQPEDFAFYYCQQTYSTPPITFGQGTRLEIKR
Work on B1 yielded an IC50 [1] of 4300 pM.

B2: mAb10966 (antibody, V domains shown)
VH: EVQLVESGGGLVQPGGSLRLSCAASGLTVSSNYMSWVRQAPGKGLEWVSVIYSGGSTFYADSVKGRFTISRDNSKNTLYLQMNSLRPEDTAVYYCAREGRIAATGYGMDVWGQGTTVTVSS
VL: DIQMTQSPSSLSASVGDRVTITCQASQDISNYLNWYQQKPGKAPKLLIYDASNLGTGVPSRFSGSRSGTDFTFTISSLQPEDIATYYCHQYDNLPQTFGPGTKVDIKR
Binder B2 has an IC50 [2] of 160 pM.

B3: mAb11006 (antibody, V domains shown)
VH: EVQLVESGGGLVQPGGSLRLSCAASGFIVSRNYMSWVRQAPGKGLEWVSVIYSGGSTFYADSVKGRFTISRHNSKNTLYLQMNSLKAEDTAVYYCARELRGYFDYWGQGTLVTVSS
VL: DIQLTQSPSFLSASVGDRVTITCWASQGISSYLAWYQQKPGKAPKLLIYAASTLQSGVPSRFSGSGSGTEFTLTISSLQPEDFATYYCQLLNSYPYTFGQGTKLEIKR
B3 was tested, and the IC50 [1] was 220 pM.
